## Zika virus NS2B-NS3: effect of single substitutions on growth in cell culture

From the data files of Ni et al. 2025, doi:10.1038/s41467-025-63602-z.

Protein: NS2B and the protease part of NS3 of Zika virus strain MR766. Positions count along the chain below; NS2B spans 2-131 and NS3 starts at 132.
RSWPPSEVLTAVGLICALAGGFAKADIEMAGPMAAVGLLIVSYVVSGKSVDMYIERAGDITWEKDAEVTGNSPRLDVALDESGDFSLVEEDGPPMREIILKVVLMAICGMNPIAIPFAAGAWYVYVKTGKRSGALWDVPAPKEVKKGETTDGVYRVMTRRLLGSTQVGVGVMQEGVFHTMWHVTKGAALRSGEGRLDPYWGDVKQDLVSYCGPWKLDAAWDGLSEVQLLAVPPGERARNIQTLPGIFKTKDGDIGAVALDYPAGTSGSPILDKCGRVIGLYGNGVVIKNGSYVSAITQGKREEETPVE

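Libraries of single mutants were passaged as virus pools on Huh-7.5 cells. Deep sequencing gave the change in frequency of each mutant relative to wild type, averaged over three replicate libraries (two for positions 207-308). The aim was to find sites where inhibitor-binding pockets cannot change.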

Scale: log2 effect, wild type = 0; the lower, the more harmful to the virus.
Each entry names the wild-type residue, its position and the residue put in its place.
The authors count -1 or higher as tolerated. Position 1 is the last residue of NS2A.
An asterisk is a stop codon; stop codons read about -7, near the floor of the assay.
Six mutants with high scores were retested singly and none clearly outgrew wild type, so positive values are not proof of better growth.
Positions 1-103, 104-206 and 207-308 were made and measured as separate libraries.

{"mutation": "L38*", "log2 growth effect": -8.72}
{"mutation": "L38A", "log2 growth effect": -6.65}
{"mutation": "L38C", "log2 growth effect": -2.30}
{"mutation": "L38D", "log2 growth effect": -5.04}
{"mutation": "L38E", "log2 growth effect": -5.99}
{"mutation": "L38F", "log2 growth effect": -4.98}
{"mutation": "L38G", "log2 growth effect": -6.99}
{"mutation": "L38H", "log2 growth effect": -4.85}
{"mutation": "L38I", "log2 growth effect": -3.40}
{"mutation": "L38K", "log2 growth effect": -6.36}
{"mutation": "L38M", "log2 growth effect": -0.40}
{"mutation": "L38N", "log2 growth effect": -5.26}
{"mutation": "L38P", "log2 growth effect": -6.63}
{"mutation": "L38Q", "log2 growth effect": -6.14}
{"mutation": "L38R", "log2 growth effect": -7.43}
{"mutation": "L38S", "log2 growth effect": -7.38}
{"mutation": "L38T", "log2 growth effect": -2.60}
{"mutation": "L38V", "log2 growth effect": -2.42}
{"mutation": "L38W", "log2 growth effect": -6.80}
{"mutation": "L38Y", "log2 growth effect": -5.66}
{"mutation": "L39*", "log2 growth effect": -6.81}
{"mutation": "L39A", "log2 growth effect": -4.38}
{"mutation": "L39C", "log2 growth effect": -2.00}
{"mutation": "L39D", "log2 growth effect": -3.86}
{"mutation": "L39E", "log2 growth effect": -4.09}
{"mutation": "L39F", "log2 growth effect": -3.97}
{"mutation": "L39G", "log2 growth effect": -5.45}
{"mutation": "L39H", "log2 growth effect": -4.52}
{"mutation": "L39I", "log2 growth effect": -2.49}
{"mutation": "L39K", "log2 growth effect": -4.66}
{"mutation": "L39M", "log2 growth effect": -0.79}
{"mutation": "L39N", "log2 growth effect": -4.27}
{"mutation": "L39P", "log2 growth effect": -3.43}
{"mutation": "L39Q", "log2 growth effect": -5.18}
{"mutation": "L39R", "log2 growth effect": -6.30}
{"mutation": "L39S", "log2 growth effect": -5.82}
{"mutation": "L39T", "log2 growth effect": -2.40}
{"mutation": "L39V", "log2 growth effect": -1.86}
{"mutation": "L39W", "log2 growth effect": -4.99}
{"mutation": "L39Y", "log2 growth effect": -4.67}
{"mutation": "I40*", "log2 growth effect": -7.45}
{"mutation": "I40A", "log2 growth effect": -1.21}
{"mutation": "I40C", "log2 growth effect": -0.72}
{"mutation": "I40D", "log2 growth effect": -4.74}
{"mutation": "I40E", "log2 growth effect": -4.73}
{"mutation": "I40F", "log2 growth effect": -0.13}
{"mutation": "I40G", "log2 growth effect": -0.65}
{"mutation": "I40H", "log2 growth effect": -4.51}
{"mutation": "I40K", "log2 growth effect": -5.21}
{"mutation": "I40L", "log2 growth effect": -1.06}
{"mutation": "I40M", "log2 growth effect": 0.52}
{"mutation": "I40N", "log2 growth effect": -5.33}
{"mutation": "I40P", "log2 growth effect": -6.00}
{"mutation": "I40Q", "log2 growth effect": -4.70}
{"mutation": "I40R", "log2 growth effect": -6.22}
{"mutation": "I40S", "log2 growth effect": -1.87}
{"mutation": "I40T", "log2 growth effect": 0.07}
{"mutation": "I40V", "log2 growth effect": 0.70}
{"mutation": "I40W", "log2 growth effect": -3.73}
{"mutation": "I40Y", "log2 growth effect": -1.66}

Excerpt, the final 6 entries:

- I40R = -6.22
- I40S = -1.87
- I40T = 0.07
- I40V = 0.70
- I40W = -3.73
- I40Y = -1.66